Experimental data: patent US5891661A, “Low temperature assay for active HCMV protease in dimeric form” (Merck & Co., Inc., priority 1997, dated 1999)

System: HCMV protease
Experiment: Size exclusion chromatography, monomer-dimer equilibrium
Format: binding, human cytomegalovirus

HCMV protease: N-terminal 256 amino acid protease domain of HCMV strain AD169, recombinantly expressed in E. coli
maximum fraction of dimeric protease (extrapolated from fit, FIG. 2) (20% glycerol, 30° C.): 0.92
maximum fraction of dimeric protease (loading concentration of 100 mM, separate experiments): ≥ 0.95
